Values from PubChem BioAssay AID1259414 (Drosophila RNAi Screening Center, 2018)
Aim: 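Fly genes that alter Wolbachia amount inside host cells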 (primary screen). Cell system: Drosophila JW18 cells infected with Wolbachia. Reagent: long dsRNA against Drosophila genes, 0.25 µg dsRNA per well of a 384-well plate. Timing: 5 days. Challenge: cells persistently infected with Wolbachia before knock-down; no added drug. Detection: 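Imaged fluorescence in situ signal for Wolbachia 23S rRNA per DAPI-counted host cell, given as a robust z-score within each plate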. Reading the numbers: Wolbachia per cell robust z: higher = more Wolbachia per host cell than the plate typical. Hit rule: 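Active if absolute robust z reaches 1.5 in two or more of three replicates, leaving out multi- or no-target dsRNAs, genes unexpressed in JW18 and A1 wells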.
The deposit covers about 24,000 reagents; this is a random part of those with a known target gene and a result. Over the whole deposit, about 1,210 (5%) are marked active. 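Inactive calls also include excluded dsRNAs with several or no targets, genes unexpressed in JW18, and well A1, regardless of score.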 Reagent sequences are not shown.

no.	gene knocked down	dsRNA	Wolbachia per cell robust z, rep 1	Wolbachia per cell robust z, rep 2	Wolbachia per cell robust z, rep 3	call
1	CG14054	DRSC17909	-0.668	0.632	-0.376	inactive
2	CG30094	DRSC22268	0.0709	0.267	0.764	inactive
3	CG30094	DRSC27064	-0.142	0.439	0.13	inactive
4	wuho	DRSC18101	0.196	0.311	-0.268	inactive
5	wuho	DRSC27950	-0.73	-0.444	-0.601	inactive
6	CG4830	DRSC15657	0.609	-0.445	0.931	inactive
7	CG15695	DRSC15117	0.481	0.555	0.712	inactive
8	CG15695	DRSC29582	0.106	-1.19	0.38	inactive
9	Ir7d (Ionotropic receptor 7d)	DRSC18010	0.216	-0.566	-3.07	inactive
10	pyd3	DRSC15459	-1.33	-1.42	-0.593	inactive
11	pyd3	DRSC21640	-1.28	-0.99	-0.634	inactive
12	CG17361	DRSC23446	0.236	-1.09	-16.1	inactive
13	CG5611	DRSC15843	-0.162	-2.82	-0.601	inactive
14	Usp32 (Ubiquitin specific protease 32)	DRSC10979	0.531	-0.563	0.755	inactive
15	CG4622	DRSC04479	0.287	-1.19	-0.694	inactive
16	eRF1 (eukaryotic translation release factor 1)	DRSC11779	0.656	0.845	0.801	inactive
17	eRF1 (eukaryotic translation release factor 1)	DRSC27974	-1.91	0.792	0.317	inactive

Records above whose gene name starts with W or w:
gene knocked down	dsRNA	Wolbachia per cell robust z, rep 1	Wolbachia per cell robust z, rep 2	Wolbachia per cell robust z, rep 3	call
wuho	DRSC18101	0.196	0.311	-0.268	inactive
wuho	DRSC27950	-0.73	-0.444	-0.601	inactive

Continued:
no.	gene knocked down	dsRNA	Wolbachia per cell robust z, rep 1	Wolbachia per cell robust z, rep 2	Wolbachia per cell robust z, rep 3	call
18	CG32833	DRSC04596	-0.8	0.72	-0.229	inactive
19	TwdlV (TweedleV)	DRSC24972	-0.444	-0.296	-0.999	inactive
20	Ccp84Ab	DRSC12587	0.267	-0.00176	0.291	inactive
21	Ccp84Ab	DRSC25096	-0.26	0.172	0.21	inactive
22	CG8952	DRSC20133	-2.43	-6.66	0.656	active
23	Snx3 (Sorting nexin 3)	DRSC16027	0.384	-1.98	1.28	inactive
24	Snx3 (Sorting nexin 3)	DRSC28751	0.46	0.314	-0.078	inactive
25	CysRS (Cysteinyl-tRNA synthetase)	DRSC05948	0.552	0.442	-0.451	inactive
26	CysRS (Cysteinyl-tRNA synthetase)	DRSC26620	0.88	0.683	0.906	inactive
27	CG6724	DRSC02983	-1.67	-0.899	0.161	inactive
28	CG7872	DRSC20062	0.00813	-0.00467	0.229	inactive
